Measured values from patent US20180280321A1, “COMPOSITIONS AND METHODS THAT INHIBIT QUORUM SENSING” (The Office of Innovation Commercialization, priority 2015, published 2018).

Test system: AgrC-R238H (constitutively active) isolate AH3470
Experiment: AgrC constitutive reporter assay (rabbit RBC lysis), constitutively active AgrC

O=C1c2cc(O)cc(O)c2C(=O)c2c(O)cc(CO)cc21 [OHM, 1,3,8-trihydroxy-6-(hydroxymethyl)anthracene-9,10-dione]
agr-mediated Hla expression (lysis of rabbit RBCs): inhibited Hla expression
